# The list shows a part of the results, in another mix than the full data. Calls of active or inactive are those of the source.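 The calls were made as follows: active = average inhibition reaching 50% or more with the compound at 20 µM; inactive = the rest.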
# System: diaphorase (Clostridium kluyveri)
# Experiment: C. kluyveri diaphorase inhibition, resazurin coupling – biochemical, fluorescence intensity, 10 µM NADPH, counter-screen for P. falciparum G6PD inhibitor project, confirmation (AID 504862);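 also: resorufin red fluorescence formed as diaphorase reduces resazurin using NADPH; 0% = DMSO with enzyme and 100% = DMSO without enzyme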
# Conditions: diaphorase-coupled resazurin reduction, NADPH 10 uM, at 20 µM, hits give high values
smiles,measurement,value
CN(C)C(=O)c1cc([N+](=O)[O-])cc2c1-c1c(cc([N+](=O)[O-])cc1[N+](=O)[O-])C2=O,inhibition,active: 82.7%

# From PubChem BioAssay AID504862 (Sanford-Burnham Center for Chemical Genomics, 2011)
